Data source: PubChem BioAssay AID1224833 (University of Georgia, 2016)

Purpose: 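Human genes whose knock-down alters rotavirus replication in monkey cells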 (primary screen)
System: monkey MA104 kidney cells
Reagent: siRNA pool against human genes, 50 nM
Duration: 48 h knock-down before infection; read 24 h after infection
Conditions: infection with rotavirus strain RV3 two days after transfection; infectious dose for this stage not given
Read-out: 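Rotavirus antigen per well by fluorescent immunoassay, normalised to non-targeting control wells on each plate and given as a standard z-score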
Reading the numbers: z-score vs non-targeting control: higher = more rotavirus replication than with non-targeting control
Call rule: In these data the active calls have z-score vs non-targeting control at about -1 or lower, or at about 1 or higher
Meaning of the calls: active = z-score beyond 1 either way; inactive = z-score within 1 of zero
This is a random part of about 12,000 reagents. Of all reagents, about 5,600 (46%) got an active call. 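Active calls cover z-scores past 1 in both directions, so they include lowered as well as raised rotavirus replication.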

The opening 7 records as a preview:
| target gene | z-score vs non-targeting control | outcome |
| --- | --- | --- |
| ANKRD28 | -1.32 | active |
| CYB561A3 | 0.491 | inactive |
| NOXO1 | -1.05 | active |
| GPR179 | 0.881 | inactive |
| KYNU | 0.619 | inactive |
| SIGLECL1 | -0.908 | inactive |
| DCTD | -0.0109 | inactive |

Results, from the first entry:
| target gene | z-score vs non-targeting control | outcome |
| --- | --- | --- |
| ANKRD28 | -1.32 | active |
| CYB561A3 | 0.491 | inactive |
| NOXO1 | -1.05 | active |
| GPR179 | 0.881 | inactive |
| KYNU | 0.619 | inactive |
| SIGLECL1 | -0.908 | inactive |
| DCTD | -0.0109 | inactive |
| CD37 | -0.974 | inactive |
| NAA15 | 1.44 | active |
| WDR20 | -2.09 | active |
| ITPRID2 | -2.12 | active |
| PCYOX1L | 0.725 | inactive |
| SF3B1 | -1.76 | active |
| COL22A1 | 1.22 | active |
| SELENOK | -0.24 | inactive |
| FUNDC2 | -0.923 | inactive |
| KLC3 | -1.24 | active |
| HAND1 | 1.95 | active |
| PLEKHA1 | -2.55 | active |
| COPS3 | -1.03 | active |
| CA1 | -1.17 | active |
| TMEM260 | -0.586 | inactive |
| C4BPA | 0.105 | inactive |
| TNFRSF11A | -1.21 | active |
| LRFN2 | -0.515 | inactive |
| WDR12 | 1.28 | active |
| RPA2 | 1.4 | active |
| SLC16A9 | 2.44 | active |
| SLC1A4 | 0.373 | inactive |
| PLAC9 | 1.9 | active |
| MTFR1 | -0.56 | inactive |
| VWA5A | -0.187 | inactive |
| PHTF2 | -1.17 | active |
| BHLHE41 | -0.28 | inactive |
| OR8B2 | -1.3 | active |
| OR9Q1 | -1.03 | active |
| CAPN12 | -0.647 | inactive |
| ADAMTSL4 | 0.36 | inactive |
| NVL | -0.026 | inactive |
| RMND5B | 1.94 | active |
| LIPC | 0.516 | inactive |
| TSPYL2 | 3.55 | active |
| CHSY1 | -0.931 | inactive |
| DYNLT2B | -1.71 | active |
| FANCL | 0.493 | inactive |
| OR11H12 | -0.752 | inactive |
| CHCHD5 | -0.843 | inactive |
| MRGPRE | -1.03 | active |
| EDRF1 | -0.899 | inactive |
| TPM1 | -1.81 | active |
| PCLAF | -2.46 | active |
| IRF7 | -1.71 | active |
| LLGL2 | 1.31 | active |
| PRPF38A | -0.891 | inactive |
| TAC4 | 1.47 | active |
| HTT | -1.1 | active |
| CENPQ | -0.519 | inactive |
| EIF3A | 0.659 | inactive |
| SEMA6B | -0.192 | inactive |
| EEF1D | -0.563 | inactive |
| STMN1 | -2.06 | active |
| HERPUD1 | 0.419 | inactive |
| CHMP2B | -1.89 | active |
| PLA2G4A | -0.7 | inactive |
| CPNE5 | -0.794 | inactive |
| GM2A | -0.63 | inactive |
| NUP58 | 1.33 | active |
| ZNF136 | 0.723 | inactive |
| FAM78A | -0.769 | inactive |
| DSG2 | -2.05 | active |
| CNNM1 | 0.778 | inactive |
| NRIP1 | -0.282 | inactive |
| DCAF4 | 0.384 | inactive |
| ATP5ME | 0.743 | inactive |
| SHLD2 | 0.12 | inactive |
| CYTH4 | -0.995 | inactive |
| GPR173 | -1.14 | active |
| SFRP2 | -1.31 | active |
| LIM2 | 0.231 | inactive |
| RTKN | 0.853 | inactive |
| RPS18 | -1.22 | active |
| MICALL2 | -1.97 | active |
| LMAN2 | 0.363 | inactive |
| KRR1 | -1.63 | active |
| CARS1 | 2.3 | active |
| PNLIPRP1 | -1.13 | active |
| CAPG | -1.66 | active |
| ZNF124 | -0.257 | inactive |
| ADAMTS18 | 1.14 | active |
| MATR3 | 0.428 | inactive |
| ZZEF1 | 1.32 | active |
| HCFC1 | -1.64 | active |
| ADH5 | -2.48 | active |
| OOSP2 | 0.578 | inactive |
| PLPPR2 | -2.06 | active |
| ZCCHC8 | 0.457 | inactive |
| ATP1A2 | -1.7 | active |
| GPR65 | -1.4 | active |
| PEX3 | -0.285 | inactive |
| WTAP | -0.81 | inactive |
| TTLL12 | -0.596 | inactive |
| OR4Q3 | -1.56 | active |
| FAM3B | 1.08 | active |
| ZNF570 | 1.28 | active |
| ZBTB11 | 0.755 | inactive |
| PRODH | -1.04 | active |
| SCGB1D4 | 0.155 | inactive |
| A2ML1 | 0.681 | inactive |
| NPFFR2 | -1.97 | active |
| SERPINA6 | 1.51 | active |
| WDR19 | 0.615 | inactive |
| EFCAB12 | 1.03 | active |
| GPSM1 | -1.32 | active |
| SERPINB12 | 1.87 | active |
| ZNF875 | -0.0923 | inactive |
| LCE1B | -1.52 | active |
| BASP1 | -1.93 | active |
| ZNF638 | 0.609 | inactive |
| ANO4 | -0.764 | inactive |
| DOCK7 | -2.05 | active |
| LEF1 | -2.4 | active |
| TCP10L3 | 1.25 | active |
| TNFRSF12A | -2.06 | active |
| INTS13 | 2.28 | active |
| RPS12 | -0.779 | inactive |
| DGAT2 | 2.74 | active |
| NRROS | 1.32 | active |
| SPI1 | -0.618 | inactive |
| OR5M8 | -0.395 | inactive |
| CLEC2B | 0.905 | inactive |
| C12orf76 | -1.09 | active |
| KRT78 | 1.16 | active |
| CPB2 | 0.661 | inactive |
| SEZ6L | 0.639 | inactive |
| SLC22A2 | -0.575 | inactive |
| ABCD3 | -1.68 | active |
| ATP1B3 | 0.956 | inactive |
| SLC39A7 | -0.603 | inactive |
| OR7E24 | 1.6 | active |
| SNAPC4 | -0.474 | inactive |
